Compound potency records, mixed from different reports. Data source: NIAID ChemDB in PubChem.

All rows: whole-cell or culture tests; agent: Hepatitis C virus; measure: EC50

ECn is the concentration giving n% inhibition of infection, replication or growth. Neighbouring rows are from separate reports. Blank or dashed fields: not listed here. a–b is a range or a potency band.

CN(CC(N)=O)c1cc2c(cc1F)c(=O)c(-c1noc(Cc3ccccc3)n1)cn2Cc1ccc(C(F)(F)F)cc1 ; strain or isolate: 1b ; read by: replicon ; value: <0.5 µM
CCCCCOc1ccc(N(C(C)=O)c2nc(-c3cccnc3)cs2)cc1C(F)(F)F ; value: <1 µM
Cc1cc(C(=O)Nc2ccc(-c3cc(N(C(=O)C4CCC(C)CC4)C(C)C)c(C(=O)O)s3)cc2)no1 ; strain or isolate: 1b ; read by: replicon ; value: <0.5 µM
CCOC(=O)C1CCN(c2cccc(Cl)c2-c2cc(-c3cccc(NC(=O)C(Cl)Cl)c3)on2)CC1 ; read by: replicon ; value: >10 µM
Cc1noc(C)c1-c1ccc2nc(NCc3ccc(S(N)(=O)=O)cc3)nc(NCC(F)(F)F)c2n1 ; read by: replicon ; value: <0.1 µM
CCCCCCCCCc1ccc(N(C(=O)C(N)C(C)C)c2nc(-c3cccnc3)c(F)s2)cc1C(F)(F)F ; value: <1 µM
CC(C)N(C(=O)c1ccc(Cl)cc1Cl)c1cc(-c2ccc(-c3cc4ncccn4n3)cc2)sc1C(=O)O ; strain or isolate: 1a ; read by: luciferase / replicon ; value: 0.01–0.05 µM
COc1ccc2ccccc2c1C1C2=C(CC(C)(C)CC2=O)Nc2c(O)cccc2N1C(=O)C(C)C ; strain or isolate: 1b ; read by: luciferase / reporter gene / replicon ; value: 6.49 µM
O=C(O)c1c(-c2ccc[nH]c2=O)c2c3ccoc3ccc2n1Cc1cc(F)ccc1F ; read by: replicon ; value: >1.5 µM
CC1CCC(C(=O)N(c2cc(-c3ccc(NC(=O)c4ncccc4F)cc3)sc2C(=O)O)C(C)C)CC1 ; strain or isolate: 1a ; read by: replicon ; value: <0.5 µM
CCOc1nc(NCc2ccc(F)cc2)nc2ccc(-c3ccc(C(=O)NC4(C#N)CC4)cc3)nc12 ; read by: replicon ; value: <0.1 µM
CC1CCC(C(=O)N(c2cc(-c3ccc(NC(=O)c4cscn4)c(C(F)(F)F)c3)sc2C(=O)O)C(C)C)CC1 ; strain or isolate: 1a ; read by: replicon ; value: <0.5 µM
O=C(Nc1cccc(-c2cc(-c3c(O)cccc3C(F)(F)F)no2)c1)C(Cl)Cl ; read by: replicon ; value: ≤10 µM
CC(C)S(=O)(=O)NC(=O)c1c(-c2ccc[nH]c2=O)c2c3c(c(F)cc2n1Cc1cc2ccccc2nc1Cl)CCO3 ; read by: replicon ; value: <0.5 µM
CCOc1nc(NCc2ccc(CS(=O)(=O)NC(C)C)cc2)nc2ccc(-c3ccc(F)cc3)nc12 ; read by: replicon ; value: <0.1 µM
O=C(NS(=O)(=O)C1CC1)c1c(-c2ccc[nH]c2=O)c2c3occc3c(F)cc2n1Cc1ccc2nc(C(F)(F)F)[nH]c2c1 ; read by: replicon ; value: <0.5 µM
CC1(C)CC(=O)C2=C(C1)Nc1c(O)cccc1N(C(=O)CC(=O)O)[C@@H]2c1ccc(Oc2ccccc2Br)cc1Cl ; strain or isolate: 1b ; read by: luciferase / reporter gene / replicon ; value: >100 µM
CN1CCN(c2cc3c(cc2F)c(=O)c(-c2noc(C(C)(C)c4ccccc4)n2)cn3Cc2cccc(C(F)(F)F)c2)CC1 ; strain or isolate: 1b ; read by: replicon ; value: >10 µM
O=C(O)/C=C/c1ccc(NC(=O)C2(NC(=O)c3ccc4c(c3)nc(-c3ccoc3)n4C3CCCCC3)CCC2)cc1 ; strain or isolate: 1b FC ; read by: replicon ; value: 1.4 µM
CN1CCN(c2cc3c(cc2F)c(=O)c(-c2noc(Cc4ccc(F)cc4)n2)cn3Cc2cccc(C(F)(F)F)c2)CC1 ; strain or isolate: 1b ; read by: replicon ; value: <0.5 µM
CC1(C)CC(=O)C2=C(C1)Nc1c(O)cccc1N(C(=O)CCC(=O)Nc1ccccc1OC(F)F)C2c1ccc(OCc2ccccc2)cc1Cl ; strain or isolate: 1b ; read by: luciferase / reporter gene / replicon ; value: 1.46 µM
COCC(C)N(C(=O)c1ccc(Cl)cc1Cl)c1cc(-c2ccccc2)sc1C(=O)O ; strain or isolate: 1b ; read by: luciferase / replicon ; value: 1–5 µM
O=C(Nc1cccc(-c2cc(-c3ccccc3C3CCCC3)no2)c1)C(Cl)Cl ; read by: replicon ; value: ≤10 µM
CC1(C)CC(=O)C2=C(C1)Nc1c(O)cccc1N(C(=O)c1ccccc1)C2c1ccc(Cl)cc1Cl ; strain or isolate: 1b ; read by: luciferase / reporter gene / replicon ; value: 5.7 µM
CC(C)N(C(=O)c1ccc(Cl)cc1Cl)c1cc(-c2ccc(-c3cn4ccsc4n3)cc2)sc1C(=O)O ; strain or isolate: 1b ; read by: replicon / ELISA ; value: 0.1–0.5 µM
CC(C)N(C(=O)C1CCC(C(F)(F)F)CC1)c1cc(-c2ccc(NC(=O)c3cscn3)cc2)sc1C(=O)O ; strain or isolate: 1a ; read by: replicon ; value: <0.5 µM
CC(=O)N1c2cccc(O)c2NC2=C(C(=O)CC(C)(C)C2)C1c1ccc(OCc2ccccn2)cc1Cl ; strain or isolate: 1b ; read by: luciferase / reporter gene / replicon ; value: 10.01 µM
CC(C)N(C(=O)c1ccc(Cl)cc1Cl)c1cc(-c2ccc(-c3cc4ncccc4o3)cc2)sc1C(=O)O ; strain or isolate: 1b ; read by: luciferase / replicon ; value: 0.01–0.05 µM
CCCCCN(C)c1ccc(N(C(N)=O)c2nc(-c3ccc(F)cc3)cs2)cc1C(F)(F)F ; value: <1 µM
CN(C)C1CCN(c2cccc(Cl)c2-c2cc(-c3cccc(NC(=O)C(Cl)Cl)c3)on2)C1 ; read by: replicon ; value: ≤10 µM
CC1(C)CC(=O)C2=C(C1)Nc1c(O)cccc1N(C(=O)NCC(=O)N1CCCC1)C2c1ccc(OCc2ccccc2)cc1Cl ; strain or isolate: 1b ; read by: luciferase / reporter gene / replicon ; value: 18.94 µM
CC(=O)N1CCN(c2cc3c(cc2F)c(=O)c(-c2noc(Cc4ccccc4)n2)cn3Cc2ccc(Cl)cc2)CC1 ; strain or isolate: 1b ; read by: replicon ; value: <2 µM
CCCCCOc1ccc(N(C(=O)OC)c2nc(-c3ccc(F)c(F)c3)cs2)cc1C(F)(F)F ; value: <1 µM
CC1(C)CC(=O)C2=C(C1)Nc1c(O)cccc1N(C(=O)c1cscn1)C2c1ccc(OCc2ccc(F)cc2)cc1F ; strain or isolate: 1b ; read by: luciferase / reporter gene / replicon ; value: 12.1 µM
CCCCCCCCc1ccc(N(C(=O)CN(C)C)c2nc(-c3cccnc3)c(F)s2)cc1C(F)(F)F ; value: <1 µM
COc1ccc2nc(Cl)c(Cn3c(C(=O)O)c(-c4ccc[nH]c4=O)c4c5occc5c(F)cc43)cc2c1 ; read by: replicon ; value: <0.5 µM
CN1CCN(c2cc3c(cc2F)c(=O)c(-c2noc(C(CCCC(N)=O)c4ccccc4)n2)cn3Cc2ccc(Cl)cc2)CC1 ; strain or isolate: 1b ; read by: replicon ; value: <10 µM
CCCCCCCCOc1ccc(N(C(=O)NCC(=O)O)c2nc(-c3cccnc3)cs2)cc1C(F)(F)F ; value: <1 µM
Cc1nocc1C(=O)Nc1ccc(-c2cc(N(C(=O)C3CCC(C)CC3)C(C)C)c(C(=O)O)s2)cc1 ; strain or isolate: 1b ; read by: replicon ; value: <0.5 µM
CCOc1nc(N)nc2c1ncn2[C@@H]1O[C@@H]2COP(=O)(OC(C)C)O[C@H]2[C@@]1(C)F ; strain or isolate: 2a ; read by: replicon ; setting: 158 d ; value: 3.07 µM
COc1ccc(-c2cc(-c3c(Cl)cccc3Cl)no2)cc1NC(=O)C(Cl)Cl ; read by: replicon ; value: ≤10 µM
CCOc1nc(NCc2ccc(F)cc2)nc2ccc(-c3ccc(NC(=O)NCCN4CCCC4)cc3)nc12 ; read by: replicon ; value: <0.1 µM
CS(=O)(=O)NC(=O)c1c(-c2ccc[nH]c2=O)c2c3occc3c(F)cc2n1Cc1cc2cccc(Br)c2o1 ; read by: replicon ; value: >1.5 µM
CN1CCN(c2cc3c(cc2F)c(=O)c(-c2noc(Cc4ccc(F)cc4F)n2)cn3Cc2ccc(Cl)cc2)CC1 ; strain or isolate: 1b ; read by: replicon ; value: <10 µM
CCCCCOc1ccc2c(c1)[nH]c(=O)c(=O)n2-c1nc(-c2cccnc2)cs1 ; value: >10 µM
Nc1cnc(-c2ccc3nc(NCc4ccc(S(N)(=O)=O)cc4)nc(NCC(F)(F)F)c3n2)cn1 ; read by: replicon ; value: <0.1 µM
COc1cccc(C)c1-c1cc(-c2cccc(NC(=O)C(Cl)Cl)c2)on1 ; read by: replicon ; value: ≤10 µM
CC(C)N(C(=O)c1ccc(C(F)(F)F)cc1F)c1cc(-c2ccc(-c3cc4ncccn4n3)cc2)sc1C(=O)O ; strain or isolate: 1b ; read by: luciferase / replicon ; value: 0.05–0.1 µM
CC1(C)CC(=O)C2=C(C1)Nc1c(O)cccc1N(C(=O)CCC(=O)Nc1ccccc1Cl)C2c1ccc(OCc2ccccc2)cc1Cl ; strain or isolate: 1b ; read by: luciferase / reporter gene / replicon ; value: 2.16 µM
O=C(O)c1c(-c2cccc(O)c2F)c2c3occc3c(F)cc2n1Cc1ccccc1F ; read by: replicon ; value: 0.5–1.5 µM
Cc1cc(OCCN2CCOCC2)cc(C)c1-c1cc(-c2cccc(NC(=O)C(Cl)Cl)c2)on1 ; read by: replicon ; value: ≤10 µM

Again, the opening 6 rows:

SMILES	strain or isolate	read by	setting	value
CN(CC(N)=O)c1cc2c(cc1F)c(=O)c(-c1noc(Cc3ccccc3)n1)cn2Cc1ccc(C(F)(F)F)cc1	1b	replicon	-	<0.5 µM
CCCCCOc1ccc(N(C(C)=O)c2nc(-c3cccnc3)cs2)cc1C(F)(F)F	-	-	-	<1 µM
Cc1cc(C(=O)Nc2ccc(-c3cc(N(C(=O)C4CCC(C)CC4)C(C)C)c(C(=O)O)s3)cc2)no1	1b	replicon	-	<0.5 µM
CCOC(=O)C1CCN(c2cccc(Cl)c2-c2cc(-c3cccc(NC(=O)C(Cl)Cl)c3)on2)CC1	-	replicon	-	>10 µM
Cc1noc(C)c1-c1ccc2nc(NCc3ccc(S(N)(=O)=O)cc3)nc(NCC(F)(F)F)c2n1	-	replicon	-	<0.1 µM
CCCCCCCCCc1ccc(N(C(=O)C(N)C(C)C)c2nc(-c3cccnc3)c(F)s2)cc1C(F)(F)F	-	-	-	<1 µM